In patent US20100221758A1, “Sensors for Measuring Contaminants” (ECI Biotech Inc., priority 2007, published 2010):

Tests used:
M. hyorhinis = experiment: Vmax measured using MCA labeled substrates with gentle HECAMEG lysis; type: biochemical, Mycoplasma hyorhinis; settings: Vmax infected medium / Vmax uninfected medium
Method: A presently preferred substrate is leu-MCA that had significant activity above the uninfected media control under the gentle conditions used to lyse the Mycoplasma (0.05% HECAMEG, 1 mM MgCl2, 100 mM NaCl, 40 mM Tris buffer, pH 8.5). The MCA-Leu substrate produces a signal level of 500 mOD in 30 minutes with M. hyorhinis, while M. hyorhinis has weak activity for arg-MCA.

Mycoplasma cells = experiment: Detergent lysis buffer procedure for trxB assay; type: cell-based; settings: 0.25% Triton X-100, 0.4% BriJ 35, digitonin
Method: A detergent lysis buffer procedure that would hydrolyze the simple Mycoplasma cell membranes but not lyse the tissue culture cells was needed. Methyl-6-O—(N-heptylcarbamoyl)-α-D-glucopyranoside (HECAMEG) is a preferred detergent. […] As expected, 0.1 mM NADPH enhanced the activity of trxB (FIG. 12). As a substrate for trxB, Bodipy® FL L-cystine provided a signal that was 7500 times that of the buffer control, however this signal was an artifact of the digitonin.

Molecule | Signal/Noise (M. hyorhinis) | effect of detergent on trxB assay (Mycoplasma cells)
leucine-(7-methoxycoumarin-4-yl)acetyl [leu-MCA] | 23.83 | –
C[C@@H]1CC[C@@]2(OC1)O[C@H]1[C@@H](O)[C@H]3[C@@H]4CC[C@H]5C[C@@H](O[C@@H]6O[C@H](CO)[C@H](O[C@@H]7O[C@H](CO)[C@@H](O)[C@H](O[C@@H]8OC[C@@H](O)[C@H](O)[C@H]8O)[C@H]7O[C@@H]7O[C@H](CO)[C@H](O)[C@H](O[C@@H]8O[C@H](CO)[C@@H](O)[C@H](O)[C@H]8O)[C@H]7O)[C@H](O)[C@H]6O)[C@H](O)C[C@]5(C)[C@H]4CC[C@]3(C)[C@H]1[C@@H]2C [digitonin] | – | either significant increase in the background or loss in the true level of trxB activity
Triton X-100 | – | either significant increase in the background or loss in the true level of trxB activity
arginine-(7-methoxycoumarin-4-yl)acetyl [arg-MCA] | 2.10 | –
methionine-(7-methoxycoumarin-4-yl)acetyl [met-MCA] | 15.90 | –
